{"source": "PubChem BioAssay AID624099 (ICCB-Longwood, 2012)", "purpose": "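Human genes that papillomavirus E2 requires to repress the HPV18 LCR promoter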 (primary screen)", "system": "human C33A cervical carcinoma cells (HPV-negative) stably expressing BPV1 E2 and an HPV18 LCR luciferase reporter", "reagents": "siRNA pool against human genes, 40 nM", "time to read-out": "72 h", "measured": "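Per-well luciferase luminescence, z-scored on each plate against the plate mean and SD with control wells left out, then averaged across three replicate plates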", "direction": "mean z-score and z-score: higher = stronger reporter signal, weaker E2 silencing", "call rule": "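Hit if mean z-score reaches 2 and two or more of three replicate z-scores also reach 2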", "note": "Shown is an unselected part of about 21,000 reagents. Over the whole deposit, 497 (2.4%) were called active. 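Higher z means weaker E2 silencing; only reporter increases were scored, and knock-downs that hurt cell survival may mask genuine repressor factors.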 Entries without a mark were called inactive."}
{"gene symbol": "NHLRC2", "mean z-score": -0.71, "z-score, replicate A": -0.72, "z-score, replicate B": -0.9, "z-score, replicate C": -0.51}
{"gene symbol": "LOC285435 (retired record)", "mean z-score": -0.2, "z-score, replicate A": -0.3, "z-score, replicate B": -0.13, "z-score, replicate C": -0.16}
{"gene symbol": "TXNDC9", "mean z-score": 0.58, "z-score, replicate A": 0.59, "z-score, replicate B": 0.48, "z-score, replicate C": 0.66}
{"gene symbol": "TXNDC12", "mean z-score": 1.37, "z-score, replicate A": 1.3, "z-score, replicate B": 1.79, "z-score, replicate C": 1.03}
{"gene symbol": "LOC389607 (retired record)", "mean z-score": 1.68, "z-score, replicate A": 1.5, "z-score, replicate B": 1.76, "z-score, replicate C": 1.78}
{"gene symbol": "FOXD2", "mean z-score": 1.06, "z-score, replicate A": 1.05, "z-score, replicate B": 0.93, "z-score, replicate C": 1.19}
{"gene symbol": "DUX4L1", "mean z-score": "2.21 (active)", "z-score, replicate A": 2.36, "z-score, replicate B": 2.24, "z-score, replicate C": 2.03}
{"gene symbol": "BAZ2A", "mean z-score": 1.23, "z-score, replicate A": 1.16, "z-score, replicate B": 1.25, "z-score, replicate C": 1.29}
{"gene symbol": "SF3B5", "mean z-score": -2.07, "z-score, replicate A": -2.31, "z-score, replicate B": -1.98, "z-score, replicate C": -1.93}
{"gene symbol": "DTX1", "mean z-score": -0.26, "z-score, replicate A": 0.04, "z-score, replicate B": -0.41, "z-score, replicate C": -0.42}
{"gene symbol": "RDH14", "mean z-score": 0.95, "z-score, replicate A": 0.97, "z-score, replicate B": 1.02, "z-score, replicate C": 0.87}

The list goes on, starting with the last 3 of the part before.
{"gene symbol": "SF3B5", "mean z-score": -2.07, "z-score, replicate A": -2.31, "z-score, replicate B": -1.98, "z-score, replicate C": -1.93}
{"gene symbol": "DTX1", "mean z-score": -0.26, "z-score, replicate A": 0.04, "z-score, replicate B": -0.41, "z-score, replicate C": -0.42}
{"gene symbol": "RDH14", "mean z-score": 0.95, "z-score, replicate A": 0.97, "z-score, replicate B": 1.02, "z-score, replicate C": 0.87}
{"gene symbol": "SLC52A3", "mean z-score": "2.15 (active)", "z-score, replicate A": 1.86, "z-score, replicate B": 2.21, "z-score, replicate C": 2.36}
{"gene symbol": "CCL3", "mean z-score": -0.52, "z-score, replicate A": -0.24, "z-score, replicate B": -0.42, "z-score, replicate C": -0.91}
{"gene symbol": "FAM95A", "mean z-score": 0.22, "z-score, replicate A": 0.31, "z-score, replicate B": 0.4, "z-score, replicate C": -0.05}
{"gene symbol": "MIR29B2CHG", "mean z-score": -1.1, "z-score, replicate A": -1.24, "z-score, replicate B": -1.3, "z-score, replicate C": -0.76}
{"gene symbol": "TOB1", "mean z-score": 0.86, "z-score, replicate A": 0.72, "z-score, replicate B": 1, "z-score, replicate C": 0.85}
{"gene symbol": "CORO2A", "mean z-score": -0.19, "z-score, replicate A": -0.76, "z-score, replicate B": 0.09, "z-score, replicate C": 0.11}
{"gene symbol": "KMT2E", "mean z-score": -1.12, "z-score, replicate A": -1.18, "z-score, replicate B": -1.14, "z-score, replicate C": -1.05}
{"gene symbol": "HNMT", "mean z-score": 1.56, "z-score, replicate A": 1.09, "z-score, replicate B": 1.83, "z-score, replicate C": 1.75}
{"gene symbol": "ZNF296", "mean z-score": 0.81, "z-score, replicate A": 0.82, "z-score, replicate B": 0.76, "z-score, replicate C": 0.85}
{"gene symbol": "GAGE5", "mean z-score": -1.44, "z-score, replicate A": -1.74, "z-score, replicate B": -1.36, "z-score, replicate C": -1.23}
